Data source: PubChem BioAssay AID1224833 (University of Georgia, 2016)
In all, the deposit lists about 12,000 reagents; this is an unselected part. About 5,600 of all reagents (46%) count as active. 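Active calls cover z-scores past 1 in both directions, so they include lowered as well as raised rotavirus replication.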 Unmarked entries are inactive.

Aim: 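Host factors restraining rotavirus as candidate antiviral genes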 (primary screen)
Cells: monkey MA104 kidney cells
Reagents: siRNA pool against human genes, 50 nM
Time to read-out: 48 h knock-down before infection; read 24 h after infection
Challenge: infection with rotavirus strain RV3 two days after transfection; infectious dose for this stage not given
Measured: 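Rotavirus antigen per well by fluorescent immunoassay, normalised to non-targeting control wells on each plate and given as a standard z-score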
Reading the numbers: z-score vs non-targeting control: higher = more rotavirus replication than with non-targeting control
Hit rule: In these data the active calls have z-score vs non-targeting control at about -1 or lower, or at about 1 or higher
Calls: active = z-score beyond 1 either way; inactive = z-score within 1 of zero

The first 11 entries as a preview:
gene symbol	PubChem SID	z-score vs non-targeting control
PDLIM7	SID329576506	1.03 (active)
SMYD5	SID329577100	1.55 (active)
PPA1	SID329574916	1.64 (active)
FAM193A	SID329576189	0.6
KRT25	SID329582930	0.306
ZNF32	SID329575867	-2.16 (active)
GAS1	SID329573722	0.777
TNN	SID329580518	-1.16 (active)
NUP62CL	SID329579416	-1.42 (active)
OR6V1	SID329584147	-0.166
TAF5L	SID329578490	1.08 (active)

Results, from the start:
gene symbol	PubChem SID	z-score vs non-targeting control
PDLIM7	SID329576506	1.03 (active)
SMYD5	SID329577100	1.55 (active)
PPA1	SID329574916	1.64 (active)
FAM193A	SID329576189	0.6
KRT25	SID329582930	0.306
ZNF32	SID329575867	-2.16 (active)
GAS1	SID329573722	0.777
TNN	SID329580518	-1.16 (active)
NUP62CL	SID329579416	-1.42 (active)
OR6V1	SID329584147	-0.166
TAF5L	SID329578490	1.08 (active)
SCG5	SID329575311	-0.577
CALY	SID329578808	0.185
HMGA1	SID329573985	-2.39 (active)
MYO9A	SID329574538	-1.63 (active)
SHQ1	SID329579607	1.14 (active)
SPACA3	SID329582502	-1.76 (active)
KLHL8	SID329580292	-0.418
NMI	SID329576427	-1.34 (active)
PPIL6	SID329583953	-2.35 (active)
APLN	SID329576323	-1.28 (active)
NPRL2	SID329577292	0.144
USP24	SID329577954	1.85 (active)
TARS2	SID329581179	1.24 (active)
HNRNPD	SID329574000	0.877
TAFA5	SID329578177	-0.801
YJU2B	SID329581322	-1.42 (active)
SH2D4B	SID329584299	0.0708
ICE2	SID329580943	1.21 (active)
CARMIL1	SID329579763	-0.238
WFS1	SID329575808	-1.35 (active)
CCDC9	SID329578310	-1.86 (active)
NAT2	SID329572648	0.674
TRAF2	SID329575715	0.834
TMEM14B	SID329581365	2.46 (active)
IL17RC	SID329581732	0.353
TMED10	SID329577459	-2.81 (active)
RHOF	SID329579301	-0.619
SLF2	SID329579831	-1.01 (active)
BAALC	SID329581052	-2.71 (active)
UCP2	SID329575756	-0.956
MYO7A	SID329574536	0.43
CST9	SID329582622	-0.429
FOCAD	SID329579461	-1.6 (active)
GON4L	SID329579430	-1.97 (active)
CD300E	SID329584103	-1.51 (active)
SESN2	SID329581434	0.63
PCDHA2	SID329579995	-0.19
PSAPL1	SID329584746	0.591
C1orf162	SID329582602	-2.4 (active)
NKAP	SID329580899	-0.563
S100A13	SID329575233	-1.68 (active)
ABCB11	SID329576214	-0.971
GTSF1	SID329582420	-1.79 (active)
SH2B3	SID329576922	-0.748
AFF2	SID329573678	-1.05 (active)
DRC8	SID329581580	-0.581
ARHGAP29	SID329576583	-1.27 (active)
ANK2	SID329572768	1.6 (active)
SNX9	SID329579063	1.41 (active)
HLA-DMB	SID329573964	-0.634
TSNAXIP1	SID329579886	1.35 (active)
FDX1	SID329573627	1.24 (active)
ABRAXAS1	SID329581529	-1.23 (active)
RLN2	SID329575132	-1.61 (active)
ZNF148	SID329575903	1.34 (active)
OR6K2	SID329581295	-1.67 (active)
CD177	SID329580170	0.828
SRSF5	SID329575306	1.73 (active)
WDR74	SID329579354	1.29 (active)
RHOA	SID329572810	1.26 (active)
APPL2	SID329579632	-1.09 (active)
ATG10	SID329581449	-2.04 (active)
DSCR4	SID329577076	0.183
KIF12	SID329582182	-1.41 (active)
MARF1	SID329576714	-0.497
TLR3	SID329575661	-0.54
ARC	SID329577887	-1.33 (active)
PXMP4	SID329577623	-1.65 (active)
OPN1SW	SID329572910	-1.23 (active)
LPA	SID329574321	-0.543
OR2T29	SID329584124	0.0209
BCL6	SID329572906	-0.883
RBM15B	SID329578704	0.332
NPAS1	SID329574655	-0.523
C9orf40	SID329579552	-1.61 (active)
TSPAN3	SID329576962	-0.2
KLF11	SID329576122	-0.518
F2RL2	SID329573591	-1.68 (active)
RUNX2	SID329573022	1.44 (active)
MGMT	SID329574441	-1.46 (active)
PSG7	SID329574971	-0.885
QDPR	SID329575037	-0.585
GJB2	SID329573770	1.22 (active)
CAPN3	SID329573006	0.54
TPPP2	SID329582445	0.388
C1QTNF8	SID329584429	-1.25 (active)
NANOS2	SID329584046	-0.0324
ZMYND19	SID329582302	1.07 (active)
OLIG1	SID329582315	0.778
NDUFS1	SID329574580	-0.722
PLAC8	SID329579018	-0.974
OR13C4	SID329582765	-0.977
REM1	SID329578604	0.987
KRT5	SID329574237	0.211
ZNF114	SID329583231	0.535
GGNBP2	SID329581063	-1.32 (active)
NRL	SID329574674	-2.49 (active)
POU2AF2	SID329584089	1.84 (active)
CADM4	SID329583385	-1.42 (active)
AZGP1	SID329572885	1.86 (active)
CTNNA2	SID329573310	-1.29 (active)
TMEM171	SID329582709	-0.195
TMEM52	SID329584050	1.4 (active)
ATP5MC3	SID329572868	-1.41 (active)
NR2E1	SID329575663	-0.966
PGAP1	SID329581131	1.71 (active)
ADGRD2	SID329584152	1.49 (active)
TTN	SID329575733	-1.32 (active)
RASGRP4	SID329582278	-0.778
NDUFS3	SID329574582	0.66
CCR10	SID329573825	0.551
SLCO1A2	SID329575380	-0.184
SLC25A52	SID329582935	0.405
PNPLA2	SID329580159	0.356
THOC2	SID329580200	-3.7 (active)
MPDU1	SID329576640	-0.423
GNAZ	SID329573795	-1.54 (active)
RPL35A	SID329575175	-1.94 (active)
ZNF354A	SID329575588	-2.65 (active)
CTXN3	SID329584673	-1.17 (active)
EGR1	SID329573500	-1.64 (active)
CCDC80	SID329583055	-0.941
SPTLC1	SID329577237	-1.35 (active)
CFAP100	SID329584178	-1.25 (active)
ZKSCAN7	SID329579919	0.25
MPDZ	SID329576283	1.03 (active)
HGD	SID329573957	2.09 (active)
SPMAP1	SID329584322	0.47
PRR23B	SID329584352	-0.8
